According to ChEMBL document CHEMBL4007399, “Discovery and Synthesis of a Phosphoramidate Prodrug of a Pyrrolo[2,1-f][triazin-4-amino] Adenine C-Nucleoside (GS-5734) for the Treatment of Ebola and Emerging Viruses” (J Med Chem, 2017):

Tested on: PBMC
Assay: Half life in rhesus monkey PBMC assessed as ((2R,3S,4R,5R)-5-(4-aminopyrrolo[1,2-f][1,2,4]triazin-7-yl)-5-cyano-3,4-dihydroxytetrahydrofuran-2-yl)methyl tetrahydrogen triphosphate levels at 10 mg/kg, iv administered as single bolus
Assay type: ADME, organism-based, Macaca mulatta
Conditions: in vivo

CCC(CC)COC(=O)[C@H](C)N[P@](=O)(OC[C@H]1O[C@@](C#N)(c2ccc3c(N)ncnn23)[C@H](O)[C@@H]1O)Oc1ccccc1
t1/2: 14 h
